Measured values from several laboratories, pooled; numbers as filed in NIAID ChemDB.

Common to all: cytotoxicity tests; cells: MT-2; read by: XTT; endpoint: CC50

CCn: concentration that lowers growth or viability of the cells by n%. Lines come from different laboratories, so protocols vary.

compound | result
Cn1nc(NS(C)(=O)=O)c2c(Cl)ccc(-n3c([C@H](Cc4cc(F)cc(F)c4)NC(=O)Cn4nc(C(F)F)c5c4C(F)(F)[C@@H]4C[C@H]54)nc4cc(OCC5CCC5)ccc4c3=O)c21 | >1 µM
O=S(=O)(OC1/C(=C/c2ccco2)CNC/C1=C\c1ccco1)c1ccccc1 | >101 µM
CC(C)(C)c1ccc2c(=O)n(-c3ccc(Cl)c4c(NS(C)(=O)=O)nn(CC(F)(F)F)c34)c([C@H](Cc3cc(F)cc(F)c3)NC(=O)Cn3nc(C(F)F)c4c3C(F)(F)[C@@H]3C[C@H]43)nc2c1 | >1 µM
Cc1cn([C@H]2C=C[C@@H](CO)O2)c(=O)[nH]c1=O | 286 µM
Nc1ncnc2c1ncn2[C@@H]1O[C@H](CO)C[C@@H]1F | 650 µM
Fc1ccc(N=C2/C(=C/c3ccco3)CNC/C2=C\c2ccco2)cc1 | >115 µM
NC(=O)C(c1ccccc1)(c1ccccc1)C1CCCN(CCOCc2ccccc2)C1 | 51 µM
C(=C1/CNC/C(=C\c2ccco2)C1=NNc1ccccc1)/c1ccco1 | >116 µM
C=C(COCCc1ccccc1)[C@@H]1CC[C@]2(C(=O)NC(CC(C)C)C(=O)O)CC[C@]3(C)[C@H](CC[C@@H]4[C@@]5(C)CC[C@H](O)C(C)(C)[C@@H]5CC[C@]43C)[C@@H]12.CBr | 20.8 µM
O=C(O)c1cc(-c2ccc(/C=C3\SC(=S)N(c4cccc(F)c4)C3=O)o2)ccc1Cl | 84.5 µM
Cn1nc(NS(C)(=O)=O)c2c(Cl)ccc(-n3c([C@H](Cc4cc(F)cc(F)c4)NC(=O)Cn4nc(C(F)F)c5c4C(F)(F)[C@@H]4C[C@H]54)nc(C#CC(C)(C)S(C)(=O)=O)cc3=O)c21 | >0.5 µM
Nc1nc2c(ncn2[C@H]2CO[C@@H](CO)O2)c(=O)[nH]1 | >500 µM
C[C@H](Cn1cnc2c(N)ncnc21)OCP(=O)(O)O | >50 µM
NC(=O)C(c1ccccc1)(c1ccccc1)C1CCCN(CCC2CCCCC2)C1 | 40 µM
C=C(COCCc1ccccc1)[C@@H]1CC[C@]2(C(=O)NC(CC(C)C)C(=O)O)CC[C@]3(C)[C@H](CC[C@@H]4[C@@]5(C)CC[C@H](O)C(C)(C)[C@@H]5CC[C@]43C)[C@@H]12.CCl | 34.6 µM
O=c1[nH]cnc2c1ncn2[C@H]1CC[C@@H](CO)O1 | 1090 µM
Cc1ccccc1CCN1CCCC(C(C(N)=O)(c2ccccc2)c2ccccc2)C1 | 52 µM
CC1(C)CC(NC(=O)C(=O)Nc2ccc(Cl)cc2)CC(C)(C)N1 | >0.05 µM

The last 2 rows once more:

{"compound": "Cc1ccccc1CCN1CCCC(C(C(N)=O)(c2ccccc2)c2ccccc2)C1", "result": "52 µM"}
{"compound": "CC1(C)CC(NC(=O)C(=O)Nc2ccc(Cl)cc2)CC(C)(C)N1", "result": ">0.05 µM"}